Test results taken from article PMC12383145 (Antibiotics, 2025).
Positions of bridges follow the written chain, without caps; N, C: chain ends. Non-standard residues stand in square brackets, D forms with d. Residues, ends and D or L forms follow the SMILES beside them. Chains are numbered I, II in the order given. *: point of attachment. RhodamineB = CCN(CC)c1ccc2c(-c3ccccc3C(=O)*)c3ccc(=[N+](CC)CC)cc-3oc2c1; hPhe = N[C@@H](CCc1ccccc1)C(=O)O; Ahx = NCCCCCC(=O)O

System: HeLa cells
Experiment: Fluorescence confocal microscopy, colocalization analysis (ImageJ JaCoP)
Assay type: cell-based
Conditions: 2 h at IC50
Protocol: The possible cellular distribution of the peptides was determined by colocalization analysis of the Rhodamine B fluorescent signal, with fluorophores used to stain the nucleus (Hoechst 33342) and cytoplasm components (SMA antibody). ImageJ 1.54f analysis software and the JaCoP plugin were used to analyze signal colocalization.
HeLa cells (>70% confluence) were seeded on sterile round coverslips in 24-well plates with DMEM + 5% FBS and incubated at 37 °C, 5% CO2 for 24 h. After adhesion, the medium was replaced, and cells were treated with fluorescent peptides at their IC50 for 2 h. Then, cells were washed with PBS under constant stirring (3 × 10 min). Cellular fixation was performed using a solution containing 2% paraformaldehyde and 1% sucrose 100 mM in PBS for 30 min, followed by PBS washes (2 × 10 min). Permeabilization was carried out using a solution of 0.1% Triton X-100 and 20 mM glycine in PBS for 10 min, followed by two additional PBS washes. Blocking was performed with 1% BSA and 20 mM glycine in PBS for 10 min. Subsequently, cells were incubated with an anti-alpha-smooth muscle actin antibody (SMAC) labeled with Alexa Fluor 488 for 90 min in the dark. After incubation, cells were washed with PBS for 10 min. To stain the nuclei, 25 µL of Hoechst 3342 solution (1:50 dilution) was added and incubated for 7 min, followed by two PBS washes (2 × 10 min). The coverslips were dried by capillarity. For the fluorescence lecture, 5 µL of Fluoromount mounting medium was applied to the slide, and the coverslip containing the cells was inverted onto the medium. Slides were allowed to be dry-protected from light, and cells were visualized using a Leica DMi8 fluorescence confocal microscope. LAS X 3.10.0 and Fiji ImageJ 1.54f software were used for image analysis.

[1] = RhB signal vs Alexa Fluor 488 SMA (cytoplasmic actin), HeLa
[2] = RhB signal vs Hoechst 3322 (nucleus), HeLa

Row | Structure (SMILES) | Correlation coefficient [1] | Correlation coefficient [2] | Manders Coefficient M1 (Red) (vs Alexa Fluor 488 SMA, HeLa) | Manders Coefficient M2 (Blue/Green) (vs Alexa Fluor 488 SMA, HeLa) | Manders Coefficient M1 (Red) (vs Hoechst 3322, HeLa) | Manders Coefficient M2 (Blue/Green) (vs Hoechst 3322, HeLa)
1 | CCN(CC)c1ccc2c(-c3ccccc3C(=O)N[C@@H](CCCNC(=N)N)C(=O)N[C@@H](Cc3c[nH]c4ccccc34)C(=O)N[C@@H](CCC(N)=O)C(=O)N[C@@H](Cc3c[nH]c4ccccc34)C(=O)N[C@@H](CCCNC(=N)N)C(=O)N[C@@H](Cc3c[nH]c4ccccc34)C(=O)N[C@@H](CCC(N)=O)C(=O)N[C@@H](Cc3c[nH]c4ccccc34)C(=O)N[C@@H](CCCNC(=N)N)C(N)=O)c3ccc(=[N+](CC)CC)cc-3oc2c1 [RhB-1, RhB-RWQWRWQWR] (RhodamineB-RWQWRWQWR-NH2) | 0.444 | 0.697 | 0.488 | 0.749 | 0.962 | 0.746
2 | CCN(CC)c1ccc2c(-c3ccccc3C(=O)N[C@@H](CCCNC(=N)N)C(=O)N[C@@H](CCCNC(=N)N)C(=O)N[C@@H](Cc3c[nH]c4ccccc34)C(=O)N[C@@H](CCC(N)=O)C(=O)N[C@@H](Cc3c[nH]c4ccccc34)C(=O)N[C@@H](CCCNC(=N)N)C(=O)N[C@@H](CCc3ccccc3)C(=O)N[C@@H](CCCCN)C(=O)N[C@@H](CCCCN)C(=O)N[C@@H](CC(C)C)C(=O)NCC(=O)NCCCC[C@H](NC(=O)CNC(=O)[C@H](CC(C)C)NC(=O)[C@H](CCCCN)NC(=O)[C@H](CCCCN)NC(=O)[C@H](CCc3ccccc3)NC(=O)[C@H](CCCNC(=N)N)NC(=O)[C@H](Cc3c[nH]c4ccccc34)NC(=O)[C@H](CCC(N)=O)NC(=O)[C@H](Cc3c[nH]c4ccccc34)NC(=O)[C@H](CCCNC(=N)N)NC(=O)[C@H](CCCNC(=N)N)NC(=O)c3ccccc3-c3c4ccc(=[N+](CC)CC)cc-4oc4cc(N(CC)CC)ccc34)C(=O)NCCCCCC(N)=O)c3ccc(=[N+](CC)CC)cc-3oc2c1 [RhB-2, (RhB-RRWQWR-hF-KKLG)2K-Ahx] (I: RhodamineB-RRWQWR[hPhe]KKLGK[Ahx]-NH2 / II: RhodamineB-RRWQWR[hPhe]KKLG; amide I:12-II:C) | 0.664 | 0.488 | 0.947 | 0.77 | 0.345 | 0.435
